The exact form of at least one protein or probe is not confirmed.
Biological target: VraRC (VraR C-terminal DNA-binding domain) (Staphylococcus aureus) (UniProt Q7A2Q1)
Assay: fluorescence polarization
Details: 10 nM DNA, unphosphorylated DNA-binding domain; 20 mM sodium phosphate, 150 mM NaCl, pH 6.0, 25 °C, 10 min; recombinant protein; residues 138-209; label: 5' 6-FAM on strand 1

By UniProt entry, the sequences of proteins in these tests, tags left out. Residues count along the entry.
UniProt Q7A2Q1, 138-209: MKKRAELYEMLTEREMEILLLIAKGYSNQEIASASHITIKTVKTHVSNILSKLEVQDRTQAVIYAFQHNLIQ

**Q.** How did the Kd turn out when “AGACTAAAGTATGAACATCATT (double strand) [VraRC cognate DNA (6-FAM 22-mer; probably R1-DNA)]” was run?
**A.** Its Kd is 4.1 µM.

Reference: paper PMC11323011, “Combatting Antibiotic-Resistant Staphylococcus aureus: Discovery of TST1N-224, a Potent Inhibitor Targeting Response Regulator VraRC, through Pharmacophore-Based Screening and Molecular Characterizations” (Journal of Chemical Information and Modeling, 2024)
